Data source: PubChem BioAssay AID624099 (ICCB-Longwood, 2012)

Screen: 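Host factors E2 relies on to silence an HPV18 LCR reporter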 (primary screen)
System: human C33A cervical carcinoma cells (HPV-negative) stably expressing BPV1 E2 and an HPV18 LCR luciferase reporter
Reagent: siRNA pool against human genes, 40 nM
Time to read-out: 72 h
Detection: 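HPV18 LCR reporter light per well, converted to plate-wise z-scores that exclude control wells, and averaged over triplicate plates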
Reading the numbers: mean z-score and z-score: higher = stronger reporter signal, weaker E2 silencing
Active means: 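Mean z ≥ 2 together with z ≥ 2 in two or more of the three replicates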
Here is one part, drawn at random, of about 21,000 deposited reagents. Of all reagents, 497 (2.4%) were called active. 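Higher z means weaker E2 silencing; only reporter increases were scored, and knock-downs that hurt cell survival may mask genuine repressor factors.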

| gene knocked down | PubChem SID | mean z-score | z-score, replicate A | z-score, replicate B | z-score, replicate C | call |
| --- | --- | --- | --- | --- | --- | --- |
| CHRNG | SID134311567 | -0.63 | -0.73 | -0.51 | -0.67 | inactive |
| C1orf174 | SID134325194 | 0.47 | 0.2 | 0.78 | 0.45 | inactive |
| MRC2 | SID56479290 | -0.87 | -0.99 | -0.85 | -0.78 | inactive |
| STIMATE | SID134326857 | 0.35 | 0.38 | 0.22 | 0.46 | inactive |
| MOSPD1 | SID134324226 | 0.47 | 0.65 | 0.54 | 0.21 | inactive |
| UGT2B15 | SID134323925 | 0.42 | 0.34 | 0.39 | 0.53 | inactive |
| TENM3-AS1 | SID134322376 | -0.15 | -0.42 | 0.05 | -0.09 | inactive |
| KDM7A | SID134326330 | 0.57 | 0.65 | 0.2 | 0.85 | inactive |
| KDM7A | SID134327906 | -0.04 | 0.13 | -0.35 | 0.09 | inactive |
| BAD | SID134310120 | -0.25 | -0.65 | -0.15 | 0.05 | inactive |
| APIP | SID134313347 | 1.39 | 1.25 | 1.74 | 1.19 | inactive |
| CNTN1 | SID134315940 | -0.53 | -0.44 | -0.39 | -0.77 | inactive |
| TAAR1 | SID134311166 | 1.06 | 0.95 | 1.02 | 1.2 | inactive |
| RIMS1 | SID134318335 | 1.06 | 1.12 | 0.4 | 1.67 | inactive |
| TFDP2 | SID134309849 | 0.59 | 0.39 | 0.7 | 0.68 | inactive |
| ZNF800 | SID134322001 | 0.86 | 0.46 | 1.18 | 0.93 | inactive |
| AGTR1 | SID134310883 | -0.87 | -0.98 | -0.87 | -0.75 | inactive |
| KLB | SID134321847 | -0.18 | -0.34 | -0.24 | 0.05 | inactive |
| LOC388684 (retired record) | SID134327100 | -0.37 | -0.39 | -0.27 | -0.46 | inactive |
| SLC26A1 | SID134312534 | -0.99 | -1.02 | -0.99 | -0.97 | inactive |
| PARD6B | SID134315174 | 0.88 | 0.43 | 0.96 | 1.27 | inactive |
| RBM12 | SID134314736 | 0.55 | 0.82 | 0.26 | 0.57 | inactive |
| LOC400553 | SID134328690 | -0.33 | -0.39 | 0.27 | -0.87 | inactive |

An excerpt from above, reduced to “z-score, replicate C”.
RIMS1 [SID134318335] = 1.67
TFDP2 [SID134309849] = 0.68
ZNF800 [SID134322001] = 0.93
